Anti-infective test results gathered from many reports (values: NIAID ChemDB through PubChem).

Common to all: tests in culture; organism: Mycobacterium avium complex; measure: MIC

Conditions beyond the fields shown may differ between rows. Blank or dashed fields: not listed here.

SMILES | strain | method | result
CO[C@H]1/C=C/O[C@@]2(C)Oc3c(C)c(O)c4c(O)c(c(/C=N/N5CCN(C)CC5)c(O)c4c3C2=O)NC(=O)/C(C)=C\C=C\[C@H](C)[C@H](O)[C@@H](C)[C@@H](O)[C@@H](C)[C@H](OC(C)=O)[C@@H]1C | 13008 (serotype 20) | - | 0.4 µg/mL
NC[C@@H]1O[C@H](O[C@H]2[C@@H](O)[C@H](O[C@@H]3[C@@H](O)[C@H](N)C[C@H](N)[C@H]3O[C@H]3O[C@H](CO)[C@@H](O)[C@H](O)[C@H]3N)O[C@@H]2CO)[C@H](N)[C@@H](O)[C@@H]1O | Isolate 122 | - | 25 µg/mL
COC1CCN(c2c(F)cc3c(=O)c(C(=O)O)cn(C4CC4)c3c2F)C1 | 1988557 | - | 1 µg/mL
NC[C@H]1O[C@H](O[C@H]2[C@H](O[C@@H]3O[C@H](CO)[C@@H](O)[C@H]3O)[C@@H](O)[C@H](N)C[C@@H]2N)[C@H](N)[C@@H](O)[C@@H]1O | Isolate 49 | - | 12.5 µg/mL
CC[C@@H](CO)NCCN[C@@H](CC)CO | 3342-4 | - | 3.8 µg/mL
CCC1CCN(c2c(F)cc3c(=O)c(C(=O)O)cn(C4CC4)c3c2F)C1 | 1172733 | - | 4 µg/mL
CN[C@@H]1[C@H](O[C@H]2[C@H](O[C@H]3[C@H](O)[C@@H](O)[C@H](N=C(N)N)[C@@H](O)[C@@H]3N=C(N)N)O[C@@H](C)[C@]2(O)C=O)O[C@@H](CO)[C@H](O)[C@H]1O | 13016 (serotype 4) | - | 0.8 µg/mL
C[C@@H]1CN(c2c(F)c(N)c3c(=O)c(C(=O)O)cn(C4CC4)c3c2F)C[C@H](C)N1 | 11 | broth dilution | ≤0.06 µg/mL
CCN(CC)CC1CCN(c2c(F)cc3c(=O)c(C(=O)O)cn(C4CC4)c3c2F)C1 | 1172733 | - | 4 µg/mL
CN[C@@H]1[C@H](O[C@H]2[C@H](O[C@H]3[C@H](O)[C@@H](O)[C@H](N=C(N)N)[C@@H](O)[C@@H]3N=C(N)N)O[C@@H](C)[C@]2(O)C=O)O[C@@H](CO)[C@H](O)[C@H]1O | Isolate 53 | - | 6.25 µg/mL
NC[C@@H]1O[C@H](O[C@H]2[C@@H](O)[C@H](O[C@@H]3[C@@H](O)[C@H](N)C[C@H](N)[C@H]3O[C@H]3O[C@H](CO)[C@@H](O)[C@H](O)[C@H]3N)O[C@@H]2CO)[C@H](N)[C@@H](O)[C@@H]1O | CH-5/HIV+ | - | 3.12 µg/mL
NC[C@H]1O[C@H](O[C@H]2[C@H](O)[C@@H](O[C@H]3O[C@H](CO)[C@@H](O)[C@H](N)[C@H]3O)[C@H](N)C[C@@H]2N)[C@H](O)[C@@H](O)[C@@H]1O | isolate C-29 30 | - | 400 µg/mL
O=C(O)c1cn(C2CC2)c2c(F)c(N3CCN4CCC3C4)c(F)cc2c1=O | 1988557 | - | 2 µg/mL
NCC[C@H](O)C(=O)N[C@@H]1C[C@H](N)[C@@H](O[C@H]2O[C@H](CN)[C@@H](O)[C@H](O)[C@H]2O)[C@H](O)[C@H]1O[C@H]1O[C@H](CO)[C@@H](O)[C@H](N)[C@H]1O | PLR-3/HIV+ | - | 1.25 µg/mL
CN(C)c1c(F)c(N2CCC(N(C)C)C2)c(F)c2c1c(=O)c(C(=O)O)cn2C1CC1 | 1172733 | - | 32 µg/mL
NCCC(O)C(N)CC(=O)NC1CNC(=O)C(C2CCN=C(N)N2)NC(=O)/C(=C/NC(N)=O)NC(=O)C(CO)NC(=O)C(CO)NC1=O | TMC 1403 | - | 3.13 µg/mL

Repeating the first 2 entries:

SMILES | strain | method | result
CO[C@H]1/C=C/O[C@@]2(C)Oc3c(C)c(O)c4c(O)c(c(/C=N/N5CCN(C)CC5)c(O)c4c3C2=O)NC(=O)/C(C)=C\C=C\[C@H](C)[C@H](O)[C@@H](C)[C@@H](O)[C@@H](C)[C@H](OC(C)=O)[C@@H]1C | 13008 (serotype 20) | - | 0.4 µg/mL
NC[C@@H]1O[C@H](O[C@H]2[C@@H](O)[C@H](O[C@@H]3[C@@H](O)[C@H](N)C[C@H](N)[C@H]3O[C@H]3O[C@H](CO)[C@@H](O)[C@H](O)[C@H]3N)O[C@@H]2CO)[C@H](N)[C@@H](O)[C@@H]1O | Isolate 122 | - | 25 µg/mL